Compound potency records, mixed from different reports. Data source: NIAID ChemDB in PubChem.

Shared fields: enzyme or target tests; organism: HIV-1; target: Reverse transcriptase; endpoint: inhibition

Rows are shuffled and stem from different studies. Blank or dashed fields: not listed here. Inhibition is in % at the dose shown (toxicity tests: loss of growth or viability).

structure | tested at | strain | read by | result
O=C(CCCCCCCCCCC(=O)Nc1ccc(S(=O)(=O)O)c2cccc(S(=O)(=O)O)c12)Nc1ccc(S(=O)(=O)O)c2cccc(S(=O)(=O)O)c12 | 50 µM | - | RT activity | 84%
O=C(NCCc1ccccc1)Nc1nc(-c2ccc(Cl)cc2)cs1 | 10 µg/mL | - | nucleotide incorporation | 1%
CN1C(=O)c2ccnnc2Oc2ccccc21 | 330 µM | - | ELISA | 33%
O=C(O)c1cc(NS(=O)(=O)c2cccc3c(S(=O)(=O)Nc4cc(C(=O)O)c(O)c(S(=O)(=O)O)c4)cccc23)cc(S(=O)(=O)O)c1O | 50 µM | - | RT activity | 25%
N#CC1C=Cc2ccccc2N1C(=O)c1cccnc1Nc1cccc([N+](=O)[O-])c1 | 50 µM | - | nucleotide incorporation | ≤30%
CN1C(=O)c2cc(Cl)nnc2N(C2CC2)c2ccccc21 | 330 µM | - | - | 72%
CN1C(=O)c2cc(Cl)nnc2N(C2CC2)c2ccccc21 | 330 µM | - | ELISA | 72%
O=C1Nc2ccccc2Oc2nnc(Cl)cc21 | 330 µM | - | ELISA | 22%
CCOC(=O)N1c2ccc(NC(C)=O)cc2C=CC1C#N | 50 µM | - | nucleotide incorporation | ≤30%
C=CCN1C(=O)c2ccnnc2Oc2ccc(OC)cc21 | 33 µM | - | ELISA | 35%
CCN1c2ccc(C)cc2N(C)C(=O)c2ccnnc21 | 330 µM | - | - | 84%
Cc1ccc2c(c1)N(CCCCl)C(=O)c1ccnnc1O2 | 33 µM | - | ELISA | 28%
CCCN1C(=O)c2ccnnc2N(C2CC2)c2ccccc21 | 330 µM | - | - | 90%
CC(=O)N1c2ccccc2C=CC1C#N | 50 µM | - | nucleotide incorporation | ≤30%
O=C(NCCc1ccccc1)Nc1nc2ccc(F)cc2s1 | 10 µg/mL | - | nucleotide incorporation | 39%
Cc1cc(C)c(S(=O)(=O)Oc2ccc3cccc(S(=O)(=O)O)c3c2)c(C)c1S(=O)(=O)Oc1ccc2cccc(S(=O)(=O)O)c2c1 | 50 µM | - | RT activity | 77%
CC(C)OC(=O)N1c2ccc([N+](=O)[O-])cc2C=CC1C#N | 50 µM | - | nucleotide incorporation | 94%
CCCN1C(=O)c2ccnnc2N(CC)c2ccc(C)cc21 | 330 µM | - | - | 67%
C=C(C)OC(=O)N1c2ccc([N+](=O)[O-])cc2C=CC1C#N | 50 µM | - | nucleotide incorporation | ≤30%
COC(=O)C(=O)c1csc(NC(=O)NCCc2ccccc2)n1 | 1 µg/mL | - | nucleotide incorporation | 1%
C=CCOC(=O)N1c2ccc([N+](=O)[O-])cc2C=CC1C#N | 50 µM | - | nucleotide incorporation | ≤30%
CCCN1c2ccccc2N(CC)C(=O)c2cc(Cl)nnc21 | 33 µM | - | - | 34%
C/C1=C\C=C\C2(C)C=C(CO)C(C)CC23OC([O-])C(C3=O)C(O)/C=C/C2(C)C=C(C=O)C(C)CC23OC([O-])C(C3=O)C(O)/C(C)=C/C=C/C2C=C(CO)C(C)CC23OC([O-])C(C3=O)C(O)/C=C/C2(C)C=C(C=O)C(C)CC23OC([O-])C(C3=O)C1O | 4 µg/mL | IIIB | RT activity | 58.1%
O=C(Nc1ccc(S(=O)(=O)O)c2cccc(S(=O)(=O)O)c12)c1ccc(C(=O)Nc2ccc(S(=O)(=O)O)c3cccc(S(=O)(=O)O)c23)cc1 | 50 µM | - | RT activity | 10%
Cc1ccnc(NC(=O)NCCc2ccccc2)n1 | 0.1 µg/mL | - | nucleotide incorporation | 9%
O=C(CCCCCCC(=O)Nc1ccc(S(=O)(=O)O)c2cccc(S(=O)(=O)O)c12)Nc1ccc(S(=O)(=O)O)c2cccc(S(=O)(=O)O)c12 | 50 µM | - | RT activity | 0%
CN1C(=O)c2ccnnc2N(C2CC2)c2ncccc21 | 33 µM | - | ELISA | 37%
CCCN1C(=O)c2cc(Cl)nnc2N(C2CC2)c2ccccc21 | 33 µM | - | - | 24%
O=S(=O)(O)c1cccc2ccc(OS(=O)(=O)c3cccc4c(S(=O)(=O)Oc5ccc6cccc(S(=O)(=O)O)c6c5)cccc34)cc12 | 50 µM | - | RT activity | 83%
O=C1NC(c2c[nH]c3ccc(O)cc23)=C/C1=C1\C(=O)NC2C=CC=CC12 | 500 µM | - | RT activity / ELISA | 94.28%
CCCCN1C(=O)c2ccnnc2N(C2CC2)c2ccccc21 | 330 µM | - | - | 28%
CCOC(=O)CN1C(=O)c2ccnnc2Oc2c(C)cc(C)cc21 | 33 µM | - | ELISA | 18%
O=C(NCCc1ccccc1)Nc1ccn[nH]1 | 10 µg/mL | - | nucleotide incorporation | 38%
Cc1ccc2c(c1)N(C(C)C)C(=O)c1ccnnc1O2 | 330 µM | - | ELISA | 88%
O=C(NCCc1ccccc1)NCc1ccoc1 | 1 µg/mL | - | nucleotide incorporation | 12%
Cc1cc(C)c(S(=O)(=O)Nc2cc(C(=O)O)c(O)c(S(=O)(=O)O)c2)c(C)c1S(=O)(=O)Nc1cc(C(=O)O)c(O)c(S(=O)(=O)O)c1 | 50 µM | - | RT activity | 98%

4 of the rows above, restated:

{"structure": "CCN1c2ccc(C)cc2N(C)C(=O)c2ccnnc21", "tested at": "330 µM", "result": "84%"}
{"structure": "O=C(O)c1cc(NS(=O)(=O)c2cccc3c(S(=O)(=O)Nc4cc(C(=O)O)c(O)c(S(=O)(=O)O)c4)cccc23)cc(S(=O)(=O)O)c1O", "tested at": "50 µM", "read by": "RT activity", "result": "25%"}
{"structure": "Cc1cc(C)c(S(=O)(=O)Oc2ccc3cccc(S(=O)(=O)O)c3c2)c(C)c1S(=O)(=O)Oc1ccc2cccc(S(=O)(=O)O)c2c1", "tested at": "50 µM", "read by": "RT activity", "result": "77%"}
{"structure": "O=C(CCCCCCCCCCC(=O)Nc1ccc(S(=O)(=O)O)c2cccc(S(=O)(=O)O)c12)Nc1ccc(S(=O)(=O)O)c2cccc(S(=O)(=O)O)c12", "tested at": "50 µM", "read by": "RT activity", "result": "84%"}